Assay results from patent US20230399650.
Construct, isoform or probe ends are uncertain for at least one entry.

Columns and labels:
[1] = test system: VapBC hetero-octamer, wild-type VapB (VapBQ12C) (Shigella sonnei); assay: EMSA; settings: 0-605 nM VapBC, 88 nM DNA, 2 mM MgCl2, 37 C, purified recombinant protein, protein details: His-VapC (pET28a-VapCB, N-terminal His on VapC)
[2] = test system: VapBC hetero-octamer, wild-type VapB (VapBQ12C) (Shigella sonnei); assay: SPR; settings: equilibrium not reached, 50 mM Tris pH 8.0, 150 mM NaCl, 25 C; purified recombinant protein; protein details: His-VapC (pET28a-VapCB, N-terminal His on VapC); label: 5' biotin

ATCATAAACGTATATCCCTTTGACATATCCCG (double strand) [vapBC operator site 1 (SH152)]
binding result ([1]; 100 mM KCl): binds

TCATCATAAACGTATATCCCTTTGACATATCCCGGTATCAATCCCACAATAGATATACACAAGACATATCCACATAAGGA (double strand) [vapBC promoter region with operator sites O1 and O2 (SH150)]
binding result ([1]; 20 mM Tris pH 7.5, 100 mM KCl): binds

ATCATAAACGTATATCCCTTTGACATATCCCG (double strand) [vapBC operator site 1, biotinylated for SPR (SH180 printed)]
binding result [2]: binds
